Data as given in PubChem BioAssay AID624099 (ICCB-Longwood, 2012)

Assay: 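Knock-downs relieving repression by E2 of an HPV18 LCR luciferase reporter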 (primary screen)
Cells: human C33A cervical carcinoma cells (HPV-negative) stably expressing BPV1 E2 and an HPV18 LCR luciferase reporter
Reagents: siRNA pool against human genes, 40 nM
Time to read-out: 72 h
Measured: 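Per-well luciferase luminescence, z-scored on each plate against the plate mean and SD with control wells left out, then averaged across three replicate plates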
Reading the numbers: mean z-score and z-score: higher = stronger reporter signal, weaker E2 silencing
Call rule: 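Mean z ≥ 2 together with z ≥ 2 in two or more of the three replicates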
The deposit covers about 21,000 reagents; this is an unselected part. Over the whole deposit, 497 (2.4%) got an active call. 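Higher z means weaker E2 silencing; only reporter increases were scored, and knock-downs that hurt cell survival may mask genuine repressor factors.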 Entries without a mark were called inactive. The numbers tell different reagents against one gene apart.

| gene symbol | reagent | mean z-score | z-score, replicate A | z-score, replicate B | z-score, replicate C |
| --- | --- | --- | --- | --- | --- |
| CAMK1 (calcium/calmodulin dependent protein kinase I) | 1 | -0.06 | 0.5 | -0.21 | -0.46 |
| CDKN1A (cyclin dependent kinase inhibitor 1A) | 1 | 0.47 | 0.46 | 0.61 | 0.33 |
| DUSP23 (dual specificity phosphatase 23) | 1 | 0.35 | 0.69 | 0.24 | 0.12 |
| OAS3 (2'-5'-oligoadenylate synthetase 3) | 1 | -0.38 | -0.57 | -0.58 | 0 |
| ZNF321P (zinc finger protein 321, pseudogene) | 1 | -0.62 | -0.28 | -0.84 | -0.74 |
| EDDM3B (epididymal protein 3B) | 1 | 0.71 | 0.66 | 0.59 | 0.87 |
| NSG2 (neuronal vesicle trafficking associated 2) | 1 | 0.78 | 0.49 | 0.81 | 1.04 |
| RUFY4 (RUN and FYVE domain containing 4) | 1 | -0.61 | -1.07 | -0.68 | -0.09 |
| C11orf40 (chromosome 11 putative open reading frame 40) | 1 | 0.85 | 1.31 | 0.43 | 0.8 |
| PALB2 (partner and localizer of BRCA2) | 1 | -0.6 | -0.16 | -1.1 | -0.56 |
| LOC402477 (retired record) | 1 | -0.83 | -0.79 | -0.96 | -0.75 |
| GBP5 (guanylate binding protein 5) | 1 | -2.67 | -2.41 | -3.02 | -2.58 |
| PNPLA2 (patatin like domain 2, triacylglycerol lipase) | 1 | 0.81 | 1.32 | 0.89 | 0.24 |

Part of the list above, set out differently:
gene symbol,reagent,mean z-score,"z-score, replicate A","z-score, replicate B","z-score, replicate C"
"ZNF321P (zinc finger protein 321, pseudogene)",1,-0.62,-0.28,-0.84,-0.74
EDDM3B (epididymal protein 3B),1,0.71,0.66,0.59,0.87
NSG2 (neuronal vesicle trafficking associated 2),1,0.78,0.49,0.81,1.04

Further records follow:
| gene symbol | reagent | mean z-score | z-score, replicate A | z-score, replicate B | z-score, replicate C |
| --- | --- | --- | --- | --- | --- |
| ARHGAP4 (Rho GTPase activating protein 4) | 1 | 0.42 | 0.39 | 0.51 | 0.36 |
| MLH1 (mutL homolog 1) | 1 | 1.44 | 1.34 | 1.35 | 1.64 |
| CEP41 (centrosomal protein 41) | 1 | -1.4 | -1.45 | -1.66 | -1.09 |
| LSM5 | 1 | -1.48 | -1.89 | -1.19 | -1.36 |
| ALG1L1P (ALG1 like 1, pseudogene) | 1 | -0.39 | -0.62 | -0.36 | -0.2 |
| MICAL1 | 1 | -1.05 | -0.92 | -1.37 | -0.85 |
| TIAL1 (TIA1 cytotoxic granule associated RNA binding protein like 1) | 1 | -0.05 | -0.01 | -0.14 | 0.01 |
| ISG20 (interferon stimulated exonuclease gene 20) | 1 | 1.22 | 1.28 | 1.22 | 1.17 |
| ZNF44 (zinc finger protein 44) | 1 | 0.93 | 1.19 | 0.78 | 0.82 |
| ZNF44 (zinc finger protein 44) | 2 | 0.9 | 0.59 | 1.33 | 0.78 |
